# Results taken from article PMC8950828 (Viruses, 2022).
# Tests used:
# [1] = system: HCoV-229E; assay: Serial passaging of HCoV-229E with rocaglates and challenge experiment; conditions: MRC-5 cells, increasing concentrations 5–10 nM, p15 vs p0
# [2] = system: SARS-CoV-2; conditions: 13 passages of SARS-CoV-2, RdRp mutation E802D; cited from earlier work
compound,measurement,setting,value
CONC(=O)[C@H]1[C@@H](O)[C@@]2(O)c3c(OC)cc(OC)cc3O[C@@]2(c2ccc(OC)cc2)[C@@H]1c1ccccc1 [CR-1-31-B],sensitivity of virus passaged 15 times to rocaglates,[1],remained sensitive
COC(=O)[C@H]1[C@@H](O)[C@@]2(O)c3c(OC)cc(O[C@@H]4O[C@@H]([C@H](O)CO)CO[C@H]4OC)cc3O[C@@]2(c2ccc(OC)cc2)[C@@H]1c1ccccc1 [Silvestrol],sensitivity of virus passaged 15 times to rocaglates,[1],remained sensitive
CCC(CC)COC(=O)[C@H](C)N[P@](=O)(OC[C@H]1O[C@@](C#N)(c2ccc3c(N)ncnn23)[C@H](O)[C@@H]1O)Oc1ccccc1,resistance after passaging,[2],partial resistance
